# Measurements reported in ChEMBL document CHEMBL5034007, “Discovery of Methylene Thioacetal-Incorporated α-RgIA Analogues as Potent and Stable Antagonists of the Human α9α10 Nicotinic Acetylcholine Receptor for the Treatment of Neuropathic Pain” (2021).
# Sequences of proteins named here, by UniProt entry; tags and fusion partners are left off. A change or cut given only in a name is not applied to a line headed by its entry.
# UniProt P48548: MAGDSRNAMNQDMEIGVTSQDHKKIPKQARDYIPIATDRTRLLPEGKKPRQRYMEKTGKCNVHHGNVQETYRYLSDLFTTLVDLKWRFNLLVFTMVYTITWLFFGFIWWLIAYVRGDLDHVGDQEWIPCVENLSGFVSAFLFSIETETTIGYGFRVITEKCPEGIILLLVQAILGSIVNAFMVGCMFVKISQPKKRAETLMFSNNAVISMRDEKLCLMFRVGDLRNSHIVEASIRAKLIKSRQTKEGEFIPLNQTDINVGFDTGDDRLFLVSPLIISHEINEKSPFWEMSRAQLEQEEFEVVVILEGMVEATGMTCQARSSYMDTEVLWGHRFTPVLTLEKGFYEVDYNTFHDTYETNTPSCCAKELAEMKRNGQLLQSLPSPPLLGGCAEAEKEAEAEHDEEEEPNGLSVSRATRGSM
# UniProt P08913, whole entry, looked up: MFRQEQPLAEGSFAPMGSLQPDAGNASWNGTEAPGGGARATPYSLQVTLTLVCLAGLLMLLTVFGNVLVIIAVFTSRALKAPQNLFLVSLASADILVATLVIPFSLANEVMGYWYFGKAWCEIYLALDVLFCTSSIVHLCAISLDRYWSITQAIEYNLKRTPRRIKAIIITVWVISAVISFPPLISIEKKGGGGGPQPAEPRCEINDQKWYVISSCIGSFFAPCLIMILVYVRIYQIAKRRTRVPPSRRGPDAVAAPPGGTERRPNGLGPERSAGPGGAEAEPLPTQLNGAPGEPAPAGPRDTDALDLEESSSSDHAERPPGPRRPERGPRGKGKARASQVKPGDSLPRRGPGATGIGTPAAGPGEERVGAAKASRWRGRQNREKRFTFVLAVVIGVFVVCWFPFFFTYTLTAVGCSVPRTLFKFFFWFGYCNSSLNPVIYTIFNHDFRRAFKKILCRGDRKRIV
# UniProt Q8VHN2: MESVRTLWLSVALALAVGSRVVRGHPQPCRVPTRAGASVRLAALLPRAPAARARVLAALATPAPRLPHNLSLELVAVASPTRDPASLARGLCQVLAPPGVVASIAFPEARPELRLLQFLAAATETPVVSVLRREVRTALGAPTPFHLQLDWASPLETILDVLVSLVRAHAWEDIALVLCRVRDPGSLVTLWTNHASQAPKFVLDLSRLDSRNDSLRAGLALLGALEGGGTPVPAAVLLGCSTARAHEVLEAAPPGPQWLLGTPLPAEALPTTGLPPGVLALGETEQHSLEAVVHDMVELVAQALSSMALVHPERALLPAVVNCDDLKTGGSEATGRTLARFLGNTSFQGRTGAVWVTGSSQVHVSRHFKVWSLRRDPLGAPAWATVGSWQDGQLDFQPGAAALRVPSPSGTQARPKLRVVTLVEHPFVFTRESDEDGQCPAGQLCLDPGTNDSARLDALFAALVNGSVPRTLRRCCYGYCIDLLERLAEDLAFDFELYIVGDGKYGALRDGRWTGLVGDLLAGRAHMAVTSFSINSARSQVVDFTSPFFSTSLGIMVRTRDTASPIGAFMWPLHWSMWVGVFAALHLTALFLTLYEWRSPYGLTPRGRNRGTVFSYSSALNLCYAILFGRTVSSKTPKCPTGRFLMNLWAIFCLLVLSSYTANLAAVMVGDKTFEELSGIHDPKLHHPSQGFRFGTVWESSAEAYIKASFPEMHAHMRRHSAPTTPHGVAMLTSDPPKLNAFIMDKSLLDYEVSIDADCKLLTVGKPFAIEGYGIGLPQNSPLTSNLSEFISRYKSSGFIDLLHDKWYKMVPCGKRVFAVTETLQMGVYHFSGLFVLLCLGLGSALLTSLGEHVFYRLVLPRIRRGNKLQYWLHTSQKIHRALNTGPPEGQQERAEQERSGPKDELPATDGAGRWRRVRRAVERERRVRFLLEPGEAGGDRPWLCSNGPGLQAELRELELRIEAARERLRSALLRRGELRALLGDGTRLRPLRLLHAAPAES
# UniProt P37288, whole entry, looked up: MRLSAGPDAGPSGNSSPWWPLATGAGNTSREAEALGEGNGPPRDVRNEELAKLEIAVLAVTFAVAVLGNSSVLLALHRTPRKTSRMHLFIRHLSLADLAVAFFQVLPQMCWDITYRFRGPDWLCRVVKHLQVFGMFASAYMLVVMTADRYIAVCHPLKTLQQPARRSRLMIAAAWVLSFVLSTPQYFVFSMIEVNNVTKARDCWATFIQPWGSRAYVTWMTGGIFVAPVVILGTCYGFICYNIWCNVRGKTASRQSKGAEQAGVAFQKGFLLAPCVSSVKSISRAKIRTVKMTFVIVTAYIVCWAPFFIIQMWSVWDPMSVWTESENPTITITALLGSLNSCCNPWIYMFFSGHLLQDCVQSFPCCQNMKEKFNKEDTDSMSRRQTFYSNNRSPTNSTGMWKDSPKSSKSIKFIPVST
# UniProt Q9Y271: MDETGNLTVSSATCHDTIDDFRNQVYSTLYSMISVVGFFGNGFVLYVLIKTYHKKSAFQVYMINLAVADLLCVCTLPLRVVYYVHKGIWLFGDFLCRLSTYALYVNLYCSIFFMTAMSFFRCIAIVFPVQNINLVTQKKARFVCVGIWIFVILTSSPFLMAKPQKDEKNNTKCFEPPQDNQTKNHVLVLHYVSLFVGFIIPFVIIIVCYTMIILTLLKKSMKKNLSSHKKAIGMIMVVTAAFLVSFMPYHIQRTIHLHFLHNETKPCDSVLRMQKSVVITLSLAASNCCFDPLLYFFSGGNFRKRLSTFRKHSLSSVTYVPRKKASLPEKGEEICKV
# UniProt P20309, whole entry, looked up: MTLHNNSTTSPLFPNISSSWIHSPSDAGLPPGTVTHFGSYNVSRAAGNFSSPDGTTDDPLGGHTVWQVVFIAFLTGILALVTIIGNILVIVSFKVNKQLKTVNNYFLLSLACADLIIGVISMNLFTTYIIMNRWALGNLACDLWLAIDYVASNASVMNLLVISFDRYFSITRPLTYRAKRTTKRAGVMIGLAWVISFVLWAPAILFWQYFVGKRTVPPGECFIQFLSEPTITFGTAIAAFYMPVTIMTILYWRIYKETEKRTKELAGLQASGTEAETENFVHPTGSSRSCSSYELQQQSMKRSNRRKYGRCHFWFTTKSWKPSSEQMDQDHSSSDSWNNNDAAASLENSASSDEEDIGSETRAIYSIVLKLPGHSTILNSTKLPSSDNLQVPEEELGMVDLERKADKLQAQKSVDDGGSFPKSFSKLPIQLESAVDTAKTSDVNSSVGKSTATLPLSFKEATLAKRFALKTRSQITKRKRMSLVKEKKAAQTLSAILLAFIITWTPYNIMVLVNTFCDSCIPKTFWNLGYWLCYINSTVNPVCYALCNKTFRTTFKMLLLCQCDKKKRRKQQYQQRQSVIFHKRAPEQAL
# UniProt P35372, whole entry, looked up: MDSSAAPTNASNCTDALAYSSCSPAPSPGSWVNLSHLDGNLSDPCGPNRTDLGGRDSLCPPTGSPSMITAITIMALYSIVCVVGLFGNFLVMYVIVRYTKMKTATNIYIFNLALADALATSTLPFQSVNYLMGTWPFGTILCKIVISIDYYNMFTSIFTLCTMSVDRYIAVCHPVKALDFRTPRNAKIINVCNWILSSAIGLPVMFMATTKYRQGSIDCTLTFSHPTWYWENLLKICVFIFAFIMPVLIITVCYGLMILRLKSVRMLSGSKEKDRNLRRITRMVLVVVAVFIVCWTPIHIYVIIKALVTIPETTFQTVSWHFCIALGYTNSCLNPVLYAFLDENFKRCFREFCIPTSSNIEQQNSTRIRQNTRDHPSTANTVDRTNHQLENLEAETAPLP
# UniProt P34981: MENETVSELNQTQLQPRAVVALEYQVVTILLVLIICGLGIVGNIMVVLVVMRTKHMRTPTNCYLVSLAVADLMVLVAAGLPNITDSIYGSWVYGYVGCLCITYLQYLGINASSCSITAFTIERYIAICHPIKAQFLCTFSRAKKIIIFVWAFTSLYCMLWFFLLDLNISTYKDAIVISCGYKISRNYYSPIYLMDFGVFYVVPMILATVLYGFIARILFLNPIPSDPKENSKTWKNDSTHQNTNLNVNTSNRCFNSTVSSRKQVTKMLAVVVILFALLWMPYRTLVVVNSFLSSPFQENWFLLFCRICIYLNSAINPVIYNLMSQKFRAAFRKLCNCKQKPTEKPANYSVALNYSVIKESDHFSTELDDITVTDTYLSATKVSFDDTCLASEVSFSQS
# UniProt P30411, whole entry, looked up: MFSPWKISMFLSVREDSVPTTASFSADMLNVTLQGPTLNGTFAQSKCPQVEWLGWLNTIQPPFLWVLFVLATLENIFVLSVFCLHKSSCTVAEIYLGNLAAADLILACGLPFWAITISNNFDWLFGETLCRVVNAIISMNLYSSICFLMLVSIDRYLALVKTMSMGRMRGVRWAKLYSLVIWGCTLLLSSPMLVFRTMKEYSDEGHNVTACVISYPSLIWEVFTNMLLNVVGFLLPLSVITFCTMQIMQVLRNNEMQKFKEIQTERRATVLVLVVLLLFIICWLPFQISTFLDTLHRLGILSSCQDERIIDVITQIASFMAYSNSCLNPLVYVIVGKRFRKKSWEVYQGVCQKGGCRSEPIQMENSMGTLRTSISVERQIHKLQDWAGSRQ
# UniProt P29371, whole entry, looked up: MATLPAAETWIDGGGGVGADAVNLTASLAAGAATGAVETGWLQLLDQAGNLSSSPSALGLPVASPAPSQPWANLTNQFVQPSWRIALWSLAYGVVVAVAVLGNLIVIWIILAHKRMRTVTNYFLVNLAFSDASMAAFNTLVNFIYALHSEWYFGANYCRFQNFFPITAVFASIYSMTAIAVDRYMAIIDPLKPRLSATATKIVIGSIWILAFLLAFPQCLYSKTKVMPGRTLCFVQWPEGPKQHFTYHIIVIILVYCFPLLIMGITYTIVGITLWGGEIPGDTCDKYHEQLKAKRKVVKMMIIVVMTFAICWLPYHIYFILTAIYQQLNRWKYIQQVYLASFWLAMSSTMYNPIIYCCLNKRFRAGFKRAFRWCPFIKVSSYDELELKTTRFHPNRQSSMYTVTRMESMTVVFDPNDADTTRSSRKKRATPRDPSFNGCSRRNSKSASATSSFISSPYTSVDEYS
# UniProt P11229: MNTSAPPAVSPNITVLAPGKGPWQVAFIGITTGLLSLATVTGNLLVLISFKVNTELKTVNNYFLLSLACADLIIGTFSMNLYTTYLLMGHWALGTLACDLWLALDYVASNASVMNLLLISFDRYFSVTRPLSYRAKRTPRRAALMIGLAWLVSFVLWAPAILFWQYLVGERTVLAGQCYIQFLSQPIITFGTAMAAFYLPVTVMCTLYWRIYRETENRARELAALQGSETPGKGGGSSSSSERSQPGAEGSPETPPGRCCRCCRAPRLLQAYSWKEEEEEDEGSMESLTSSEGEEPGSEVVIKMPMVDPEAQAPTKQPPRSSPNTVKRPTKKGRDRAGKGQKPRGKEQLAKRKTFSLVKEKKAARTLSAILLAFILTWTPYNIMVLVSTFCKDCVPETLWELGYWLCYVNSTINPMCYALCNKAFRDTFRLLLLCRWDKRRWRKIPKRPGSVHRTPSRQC
# UniProt P30542, whole entry, looked up: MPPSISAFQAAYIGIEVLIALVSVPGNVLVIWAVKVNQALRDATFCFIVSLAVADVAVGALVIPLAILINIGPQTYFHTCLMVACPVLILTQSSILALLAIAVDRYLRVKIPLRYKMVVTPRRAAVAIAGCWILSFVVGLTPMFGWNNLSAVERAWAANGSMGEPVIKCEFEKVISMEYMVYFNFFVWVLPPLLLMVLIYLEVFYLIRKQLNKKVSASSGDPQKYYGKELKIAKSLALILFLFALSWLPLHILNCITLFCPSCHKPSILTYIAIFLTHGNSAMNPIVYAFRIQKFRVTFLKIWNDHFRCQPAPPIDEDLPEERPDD
# UniProt P0DMS8, whole entry, looked up: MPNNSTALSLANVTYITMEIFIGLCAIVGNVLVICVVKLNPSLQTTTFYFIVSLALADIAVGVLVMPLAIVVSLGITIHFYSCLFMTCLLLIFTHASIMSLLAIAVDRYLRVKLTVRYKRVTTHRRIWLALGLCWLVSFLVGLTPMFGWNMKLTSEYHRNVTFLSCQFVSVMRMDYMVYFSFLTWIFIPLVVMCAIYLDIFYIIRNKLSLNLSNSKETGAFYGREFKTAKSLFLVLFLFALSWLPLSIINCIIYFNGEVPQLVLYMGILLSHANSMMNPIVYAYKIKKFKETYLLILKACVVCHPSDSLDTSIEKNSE
# UniProt P25103, whole entry, looked up: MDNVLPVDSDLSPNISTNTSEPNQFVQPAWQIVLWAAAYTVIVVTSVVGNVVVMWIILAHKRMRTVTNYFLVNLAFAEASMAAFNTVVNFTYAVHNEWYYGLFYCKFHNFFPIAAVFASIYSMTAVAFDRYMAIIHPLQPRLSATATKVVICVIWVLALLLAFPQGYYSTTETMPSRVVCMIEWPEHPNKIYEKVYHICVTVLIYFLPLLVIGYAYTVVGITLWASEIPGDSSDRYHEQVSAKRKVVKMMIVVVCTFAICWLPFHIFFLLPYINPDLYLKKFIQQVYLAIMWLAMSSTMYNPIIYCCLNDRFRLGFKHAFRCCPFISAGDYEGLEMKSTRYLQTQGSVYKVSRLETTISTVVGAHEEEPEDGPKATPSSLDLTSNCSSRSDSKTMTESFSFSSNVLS
# Assays:
# [1] = target: Thromboxane-A synthase (Homo sapiens) (UniProt P24557); test: Inhibition of TXA2 synthetase (unknown origin); conditions: concentration not given here
# [2] = target: Estrogen receptor (Homo sapiens) (UniProt P03372); test: Displacement of [3H]estradiol from human ER at 10 uM after 1200 mins by scintillation counting analysis relative to control
# [3] = target: G protein-activated inward rectifier potassium channel 4 (Rattus norvegicus) (UniProt P48548); test: Displacement of [3H]glibenclamide from rat KATP at 10 uM after 60 mins by scintillation counting analysis relative to control
# [4] = target: Alpha-2A adrenergic receptor (Homo sapiens) (UniProt P08913); test: Displacement of [3H]-RX821002 from adrenergic alpha 2 receptor (unknown origin) at 10 uM by scintillation analysis relative to control
# Rattus norvegicus [5] = species: Rattus norvegicus; test: Displacement of [125I]apamin from rat brain SkCa channel at 10 uM after 60 mins by scintillation counting analysis relative to control; conditions: filed as antagonist
# [6] = target: Glutamate NMDA receptor (Rattus norvegicus) (UniProt P35439+Q00959+Q00960+Q00961+Q62645+Q8VHN2+Q9R1M7); test: Displacement of [3H]CGP 39653 from rat brain NMDA receptor at 10 uM after 60 mins by scintillation counting method relative to control
# Rattus norvegicus [7] = species: Rattus norvegicus; test: Displacement of [3H]-QNB from rat brain muscarinic receptor at 10 uM after 120 mins by scintillation counting method relative to control
# [8] = target: Vasopressin V1a receptor (Homo sapiens) (UniProt P37288); test: Displacement of [3H]AVP from human recombinant V1a receptor at 10 uM after 60 mins by scintillation counting analysis relative to control
# [9] = target: Cysteinyl leukotriene receptor 1 (Homo sapiens) (UniProt Q9Y271); test: Displacement of [3H]LTD4 from recombinant human CysLT1 receptor at 10 uM after 60 mins by scintillation counting method relative to control
# [10] = target: Muscarinic acetylcholine receptor M3 (Homo sapiens) (UniProt P20309); test: Displacement of [3H]4-DAMP from human recombinant M3 receptor at 10 uM after 60 mins by scintillation counting analysis relative to control
# [11] = target: Mu-type opioid receptor (Homo sapiens) (UniProt P35372); test: Displacement of [3H]DAMGO from human recombinant mu receptor at 10 uM after 120 mins by scintillation counting analysis relative to control
# [12] = target: Thyrotropin-releasing hormone receptor (Homo sapiens) (UniProt P34981); test: Displacement of [3H]Me-TRH from human recombinant TRH receptor at 10 uM after 120 mins by scintillation counting analysis relative to control
# [13] = target: Type-1 angiotensin II receptor (Homo sapiens) (UniProt P30556); test: Displacement of [125I]-AT-II from human recombinant AT1 receptor at 10 uM after 120 mins by scintillation counting analysis relative to control
# [14] = target: B2 bradykinin receptor (Homo sapiens) (UniProt P30411); test: Displacement of [3H]bradykinin from human recombinant B2 receptor at 10 uM after 60 mins by scintillation counting analysis relative to control
# [15] = target: Androgen receptor (Homo sapiens) (UniProt P10275); test: Displacement of [3H]methyltrienolone from human androgen receptor at 10 uM after 1440 mins by scintillation counting method relative to control
# [16] = target: Neuromedin-K receptor (Homo sapiens) (UniProt P29371); test: Displacement of [3H]SR 142801 from human recombinant NK3 receptor at 10 uM after 120 mins by scintillation counting analysis relative to control
# [17] = target: Cannabinoid receptor 2 (Homo sapiens) (UniProt P34972); test: Displacement of [3H]WIN 55212-2 from human recombinant CB2 receptor at 10 uM after 120 mins by scintillation counting analysis relative to control
# [18] = target: Muscarinic acetylcholine receptor M1 (Homo sapiens) (UniProt P11229); test: Displacement of [125I]pirenzepine from human recombinant M1 receptor at 10 uM after 60 mins by scintillation counting analysis relative to control
# [19] = target: Corticotropin-releasing factor receptor 1 (Homo sapiens) (UniProt P34998); test: Displacement of [125I]sauvagine from recombinant human CRF1 receptor at 10 uM after 120 mins by scintillation counting analysis relative to control
# [20] = target: Adenosine receptor A1 (Homo sapiens) (UniProt P30542); test: Displacement of [3H]-DPCPX from human recombinant adenosine A1 receptor at 10 uM after 60 mins by scintillation counting analysis relative to control
# [21] = target: Histamine H2 receptor (Homo sapiens) (UniProt P25021); test: Displacement of [125I]APT from recombinant human histamine H2 receptor at 10 uM after 120 mins by scintillation counting analysis relative to control
# Rattus norvegicus [22] = species: Rattus norvegicus; test: Displacement of [3H]batrachotoxinin from rat brain sodium channel site 2 at 10 uM after 60 mins by scintillation counting analysis relative to control
# Rattus norvegicus [23] = species: Rattus norvegicus; test: Displacement of [3H]nitrendipine from rat L-type calcium channel dihydropyridine binding site at 10 uM by radioligand binding assay relative to control
# [24] = target: Adenosine receptor A3 (Homo sapiens) (UniProt P0DMS8); test: Displacement of [125I]AB-MECA from human recombinant adenosine A3 receptor at 10 uM after 120 mins by scintillation counting analysis relative to control
# [25] = target: Substance-P receptor (Homo sapiens) (UniProt P25103); test: Displacement of [125I]-Substance P LYS3 from human recombinant NK1 receptor at 10 uM after 30 mins by scintillation counting analysis relative to control
# [26] = target: Adenosine receptor A2a (Homo sapiens) (UniProt P29274); test: Displacement of [3H]-CGS 21680 from human recombinant adenosine A2A receptor at 10 uM after 120 mins by scintillation counting analysis relative to control
# [27] = target: Endothelin-1 receptor (Homo sapiens) (UniProt P25101); test: Displacement of [125I]endothelin-1 from human recombinant endothelin ETA receptor at 10 uM after 120 mins by scintillation counting analysis relative to control
compound,measurement,setting,value
C[C@H](O)[C@H]1NC(=O)[C@@H]2NC(=O)[C@@H](NC(=O)CN)CSSC[C@H](NC(=O)[C@H](CCCNC(=N)N)NC(=O)[C@@H]3CCCN3C(=O)[C@H](CC(O)O)NC1=O)C(=O)N[C@@H](CCCNC(=N)N)C(=O)N[C@@H](Cc1ccc(O)c(I)c1)C(=O)N[C@@H](CCC(N)=O)C(=O)N[C@H](C(=O)N[C@H](CC(=O)N[C@@H](CCCNC(=N)N)C(=O)O)Cc1ccc(O)cc1)CSCS2,inhibition,[1],16.9%
same,Activity,[2],-8.5%
same,Activity,[3],-5%
same,Activity,[4],-10%
same,Activity,Rattus norvegicus [5],42.4%
same,Activity,[6],2%
same,Activity,Rattus norvegicus [7],1.5%
same,Activity,[8],5.3%
same,Activity,[9],2.3%
same,Activity,[10],-2.8%
same,Activity,[11],-3.9%
same,Activity,[12],-4%
same,Activity,[13],-5.3%
same,Activity,[14],0.8%
same,Activity,[15],0%
same,Activity,[16],-9.1%
same,Activity,[17],-3.8%
same,Activity,[18],-16.8%
same,Activity,[19],14.2%
same,Activity,[20],3.3%
same,Activity,[21],-4.4%
same,Activity,Rattus norvegicus [22],-9.3%
same,Activity,Rattus norvegicus [23],-3.1%
same,Activity,[24],-11.7%
same,Activity,[25],-3.5%
same,Activity,[26],6.3%
same,Activity,[27],-29.7%
